From US9637724B2, “Selective binding of biological targets to solid phase ureides” (AGENCY FOR SCIENCE, TECHNOLOGY AND RESEARCH, priority 2012, dated 2017) come the findings set out here.

In data set [1] the test system is Bacteriophage M13. The experiment in a line: Co-precipitation of bacteriophage M13 from phage cell culture supernatant with allantoin. Here is the method:
Phage cell culture supernatant was co-precipitated by addition of allantoin at a weight to volume ratio of 7%. pH was about 7.0. Conductivity was 20 mS. The virus was recovered by dissolving the allantoin in 50 mM Hepes, 150 mM NaCl, pH 7.0. Phage recovery was about 70%. Greater than 99% of proteins and small molecule contaminants were eliminated with the supernatant.
Example 1 was repeated at pH values of 5.0, 6.0, and 8.0% allantoin.
Example 1 was repeated at NaCl concentrations corresponding to conductivity values of 40, 60, 80, and 100 mS/cm. These salt concentrations correspond with about 400, 600, 800, and 1000 mM NaCl. […] Optimal co-precipitation occurred at 400 mM NaCl. This was interpreted to reflect suppression of mutual electrostatic repulsion among viral particles with the result of supporting higher packing density of the particles on the ureide surface.
Example 1 was repeated with 3%, 5%, and 10% allantoin. Co-precipitation efficiency, as judged by removal from supernatant, was directly correlated with allantoin concentration. Recovery increased from about 31% to 57% to 91% respectively.
Phage cell culture supernatant was precipitated with 7% allantoin at 400 mM NaCl, pH 6.0. The majority of proteins and small molecule contaminants were eliminated with the supernatant. Recovery was estimated to be in excess of 90%. The virus was recovered by dissolving the allantoin in 50 mM Hepes, pH 7.0, then concentrated by ultrafiltration. Purity from the combined process were estimated by analytical anion exchange chromatography to be in excess of 90%; recovery about 80%.
Phage M13 cell culture supernatant was co-precipitated by addition of allantoin at a weight to volume ratio of 5%. pH was about 7.0. Conductivity was about 15 mS. About 60% of the virus was eliminated in the precipitate. The majority of proteins remained in the supernatant.

The nature of data set [2]: Allantoin plus ethacridine treatment of IgG supernatant, Chelex 100 / Macroprep High Q, then protein A.
[3] abbreviates: 1% allantoin, 0.02% ethacridine, Chelex 100 / Macroprep High Q.

On to `NC(=O)NC1NC(=O)NC1=O` (centres unmarked) [allantoin], for which the “NaCl concentration of optimal co-precipitation” value in data set [1] (7% allantoin) stood at 400 mM. Also, the “Purity from the combined process by analytical anion exchange chromatography” value in data set [1] (7% allantoin, 400 mM NaCl, pH 6.0, dissolution and ultrafiltration) is listed as over 90%. For the same compound, in data set [1] (20, 40, 60, 80, 100 mS/cm), the “Precipitation efficiency as judged by removal of virus from the sample, dependence on conductivity” value is reported as “directly correlated with conductivity”. Besides, the “Co-precipitation efficiency as judged by removal from the supernatant, dependence on pH” value in data set [1] (pH 5.0, 6.0, 7.0, 8.0) was “inversely correlated with pH”. Besides, in data set [2] (setting [3]), the “Dynamic binding capacity of protein A column loaded with treated sample” value is 35 mg/mL and the “host cell protein contaminants in IgG eluted from protein A” value was found to be 10 ppm. In data set [2] (treated versus untreated cell culture supernatant), the “host cell protein contaminants, times lower than untreated” value was “roughly 80 times”. Further, the “Dynamic capacity higher than column loaded with untreated sample” value in data set [2] (treated versus untreated sample) is listed as “about 20%”.
